Source: patent US6436691B1, “Chemical compounds” (Zeneca Limited, priority 1995, dated 2002)

System: LoVo colorectal tumour cells
Assay: Cytotoxicity in LoVo tumour cells, SRB assay
Conditions: mean data from 3 separate studies

N-[N-(4-{4-[bis-(2-chloroethyl)-amino]-3-methyl-phenoxy}-benzoyl)-L-alanine]-L-glutamic acid
IC50: 905 µM
